Results as given in paper PMC6753678, “Fueling Open Innovation for Malaria Transmission-Blocking Drugs: Hundreds of Molecules Targeting Early Parasite Mosquito Stages” (Frontiers in Microbiology, 2019).

Key:
[1] = test system: P. falciparum female gametocytes; assay: P. falciparum female gametogenesis assay (Pf FGAA)
[2] = test system: P. falciparum late stage (stages IV-V) gametocytes; assay: P. falciparum late stage gametocyte ATP depletion assay (Pf GC-ATP)
[3] = unified cytotox over Pf FGAA IC50, red: <10-fold selectivity, green: >10-fold
[4] = unified cytotox over Pf GC-ATP IC50, red: <10-fold selectivity, green: >10-fold
[5] = unified cytotox / IC50, <10-fold red, >10-fold green

SMILES	Assay tox ratio Pf FGAA [1, 3]	Assay tox ratio Pf GC-ATP [2, 4]	Assay tox ratio Pf FGAA [1, 5]	Assay tox ratio Pf GC-ATP [2, 5]
CCc1c(CCNCCCCCCNC(C)(C)Cc2ccc3c(c2CC)OCO3)ccc(OC)c1OC.Cl [TCMDC-132055]	3.54	16.26		
COc1ccc2ccccc2c1CNCCCCCCNCc1c(OC)ccc2ccccc12.Cl [TCMDC-137915]			5.54	15.41
COc1cc2nc(N3CCN(c4nc(N)c5cc(OC)c(OC)cc5n4)CC3)nc(N)c2cc1OC [TCMDC-123865]	89.78	201.90		
Cc1c(Cn2ncc(N3CCC(N)CC3)c(Cl)c2=O)cccc1NC(=O)Nc1ccc(-c2ccccc2)cc1.O=C(O)C(F)(F)F [TCMDC-141931]	17.13	15.92		
CCOc1cc(CNCCCCCCNCc2cc(OCC)c(OCC)c3ccccc23)c2ccccc2c1OCC.CS(=O)(=O)O [TCMDC-137939]			1.32	3.15
Cl.N=C(NCCCCC1CCCCC1)c1cccc(C(=N)NCCCCC2CCCCC2)n1 [TCMDC-137452]	1.62	7.77		
CCOc1ccccc1CCNC(C)Cc1ccc(C(=O)Nc2ccc(CC(C)NCCc3cccc(Cl)c3)cc2)cc1 (stereo not shown) [TCMDC-139805]	2.42	5.49		
Fc1ccc(NC(S)=NN=Cc2ccccn2)cc1 [TCMDC-125521]	3687.97	833.33		
Cl.Clc1ccc(OCCC2CCN(CCCCCCCN3CCC(CCOc4ccc(Cl)c(Cl)c4)CC3)CC2)cc1Cl [TCMDC-138967]	4.09	4.56		
Br.Oc1ccc(CCNCCCCCCNCCc2ccc(Cl)c3ccccc23)cc1O [TCMDC-131271]	5.19	23.18		
Cc1occc1C(=O)Nc1nc(-c2ccccn2)nc2ccsc12 [TCMDC-135244]	14.00	2.87		
COc1cc2ccccc2cc1CCNCCCCNCCc1cc2ccccc2cc1OC.CS(=O)(=O)O [TCMDC-137944]	4.09	24.05		
COc1ccc2nc(-c3ccccc3)cc(NCCCNc3cc(-c4ccccc4)nc4ccc(OC)cc34)c2c1.Cl [TCMDC-137734]	6.81	31.44		
CC(C)(C)c1ccc(CN2CCC(CNC(=O)c3cc(-c4ccccc4F)cs3)C2)cc1.O=C(O)C(F)(F)F (stereo not shown) [TCMDC-134443]	10.07	24.56		
CCCCCCOc1ccc2ccccc2c1CNCCCCCCNCc1c(OCCCCCC)ccc2ccccc12.CS(=O)(=O)O [TCMDC-137963]	1.90	5.94		
CN(C)CCCOc1ccc(CN2CCC(c3c[nH]c4ccc(NCC5CCCCC5)cc34)CC2)cc1.O=C(O)C(F)(F)F [TCMDC-140737]	10.94	12.28		
CC1CCCCN1CCCNc1nc(NCc2ccccc2)c2ccccc2n1 (stereo not shown) [TCMDC-137771]	2.39	123.90		
CCN(CC)/C(=N/C(=N)NCc1ccc(Cl)cc1Cl)NCCCCCCN/C(=N\C(=N)NCc1ccc(Cl)cc1Cl)N(CC)CC [TCMDC-131819]	7.73	122.44		
CCn1c(Sc2ccc([N+](=O)[O-])c(C#N)c2)nnc1-c1cccc(Cl)c1 [TCMDC-135234]	13.98	6.18		
COc1ccc2c(c1CCNCCCCNCCc1c(OC)ccc3c1CCCC3)CCCC2.CS(=O)(=O)O [TCMDC-137324]	1.90	8.10		
Cc1ccccc1OCC(O)CNC1CCC(NCC(O)COc2ccccc2C)CC1 (stereo not shown) [TCMDC-125142]	3.53	27.36		
COc1c(CCNCCCCNCCc2cc(Cl)c3ccccc3c2OC)cc(Cl)c2ccccc12.CS(=O)(=O)O [TCMDC-137869]			7.70	30.83
c1ccc2sc(Sc3ncnc4sccc34)nc2c1 [TCMDC-125539]	734.82	201.34		
COc1ccc(CCNCCCCCCNCCc2ccc(-c3ccccc3)cc2)cc1OC.Cl [TCMDC-131267]	4.04	29.33		
C[C@H](Cc1ccc(C[C@@H](C)NC[C@H](O)c2cccc(Cl)c2)cc1)NC[C@H](O)COc1ccccc1.Cl [TCMDC-131549]	3.55	5.35		
O=C(c1ccc([N+](=O)[O-])o1)N1CCC(Cc2ccc(C(F)(F)F)cc2)CC1 [TCMDC-124805]	132.59	80.18		
Cc1cccc2nc(-c3ccc(-c4ccc(CNCc5ccc(CN)cc5)cc4)s3)[nH]c12.O=C(O)C(F)(F)F [TCMDC-132809]	41.64	22.68		

SMILES	Assay tox ratio Pf FGAA [1, 3]	Assay tox ratio Pf GC-ATP [2, 4]	Assay tox ratio Pf FGAA [1, 5]	Assay tox ratio Pf GC-ATP [2, 5]
COc1ccc(CCNCCCCCCNCCc2ccc(Cl)cc2)c(Cl)c1OC.Cl [TCMDC-131272]	7.09	22.86		
c1cc(C2=N[C@H]3CCCC[C@@H]3N2)ccc1OCCCOc1ccc(C2=N[C@@H]3CCCC[C@H]3N2)cc1 [TCMDC-137803]	3.31	81.47		
CCCOc1ccc(CCNCCCCNCCc2ccc(OCCC)c3ccccc23)c2ccccc12.CS(=O)(=O)O [TCMDC-137952]	3.89	28.58		
COc1ccc2ccc(OC)c(CNCCCCCCNCc3c(OC)ccc4ccc(OC)cc34)c2c1.CS(=O)(=O)O [TCMDC-137796]	2.77	11.78		
ON=C1CCc2cc(-c3cc(-c4ccc(OC5CCNCC5)cc4)oc3-c3ccncc3)ccc21 [TCMDC-141381]	29.72	21.93		
C[C@H](Cc1ccc(Oc2ccc(C[C@@H](C)NC[C@H](O)c3cccc(Cl)c3)cc2)cc1)NC[C@H](O)c1cccc(Cl)c1.Cl [TCMDC-131560]	2.73	7.32		
COc1ccc(C[C@H](N)C(=O)N[C@H]2[C@@H](O)[C@H](n3cnc4c(N(C)C)ncnc43)O[C@@H]2CO)cc1 [TCMDC-123493]	8.24	4.22		
COc1cc2nc(N3CCN(C(=O)c4c(Cl)nsc4-c4ccccc4Cl)CC3)nc(N)c2cc1OC.O=C(O)C(F)(F)F [TCMDC-138186]	7.09	32.73		
CC(Cc1ccc(C(=O)Nc2ccc(CC(C)NCCc3cccc(Cl)c3)cc2)cc1)NCCc1ccc(C(F)(F)F)cc1 (stereo not shown) [TCMDC-139790]	3.69	12.11		
Cc1sc2ncnc(Sc3nnc(N)s3)c2c1C [TCMDC-124542]	47.05	121.03		
COc1ccc2c(OC)c(CNCCCCCCNCc3ccc4cc(OC)ccc4c3OC)ccc2c1.CS(=O)(=O)O [TCMDC-137953]	2.66	1.73		
CC(=O)N(Cc1ccc(CC(C)NCCc2cccc(Cl)c2)cc1)Cc1ccc(CC(C)NCCc2cccc(Cl)c2)cc1 (stereo not shown) [TCMDC-139678]	3.18	1.84		
COc1cc2ccccc2c(OC)c1CCNCCCCNCCc1c(OC)cc2ccccc2c1OC.CS(=O)(=O)O [TCMDC-137842]			2.97	12.08
CCCCOc1ccc(CNCCCCCCNCc2ccc(OCCCC)c3ccccc23)c2ccccc12.CS(=O)(=O)O [TCMDC-137281]	6.62	0.95		
CCN(CC)CCN(Cc1ccc(-c2ccc(C(F)(F)F)cc2)cc1)C(=O)Cn1cc(Cc2cnn(C)c2)c(=O)nc1/C=C/c1cccc(F)c1F [TCMDC-140964]	13.86	69.50		
S=C(NN=Cc1ccccn1)NC1CC2C=CC1C2 (stereo not shown) [TCMDC-125752]	45.77	6.27		
CN1CCN(CCNc2c3ccccc3nc3c2ccc2ccccc23)CC1.Cl [TCMDC-137723]	1.67	15.09		
CCCCN(CCCC)/C(=N/C(=N)NCc1ccc(Cl)c(Cl)c1)NCCCCCCN/C(=N\C(=N)NCc1ccc(Cl)c(Cl)c1)N(CCCC)CCCC [TCMDC-131821]	5.24	21.43		
CCCOc1ccc2ccccc2c1CNCCCCCCNCc1c(OCCC)ccc2ccccc12.CS(=O)(=O)O [TCMDC-137966]	2.46	7.49		
C#CCOc1ccc2ccccc2c1CNCCCCCCNCc1c(OCC#C)ccc2ccccc12.CS(=O)(=O)O [TCMDC-137838]	2.91	6.11		
CCCCOc1c(CCNCCCCNCCc2cc(OC)c3ccccc3c2OCCCC)cc(OC)c2ccccc12.CS(=O)(=O)O [TCMDC-137848]			4.14	31.70
C=C[C@H]1CN(CCCCCCC)CC[C@H]1CCNc1ccnc2ccc(OC)cc12 [TCMDC-139204]	1.57	2.61		
CN(C)CCN(C)Cc1cccc(-c2ccc3c(Nc4ccc(F)cc4Cl)ccnc3c2)c1 [TCMDC-138416]	0.69	10.10		
Cl.Nc1c(I)cc(C(=O)Nc2ccc3nc4c(c(N)c3c2)CCCC4)cc1I [TCMDC-142289]	8.09	15.30		
CS(=O)(=O)O.FC(F)(F)COc1ccc(CNCCCCCCNCc2ccc(OCC(F)(F)F)c3ccccc23)c2ccccc12 [TCMDC-137853]	4.37	49.64		
COc1cc2nc(NCc3cccc(CNC(=O)c4ccc(-c5ccc(C(C)=O)cc5)cc4)c3)nc(N)c2cc1OC.O=C(O)C(F)(F)F [TCMDC-138177]	1.72	4.09		
